Measured values from several laboratories, pooled; numbers as filed in NIAID ChemDB.

All rows: host cell toxicity; cell line: VERO; read-out: CC50

Neighbouring rows are from separate reports.

structure	method	result
O[C@]12C=C(Cc3cccc4cnccc34)[C@@H]3CCN(CCCC/C=C\CC1)C[C@@]31C[C@@H]3CCCCCCN3C12	-	>4.76 µg/mL
Cc1ccc(SCC(=O)NCc2cccs2)cc1	-	200 µg/mL
COC(=O)C(CO)N=Cc1c(O)c(O)c(C(C)C)c2cc(C)c(-c3c(C)cc4c(C(C)C)c(O)c(O)c(C=NC(CO)C(=O)OC)c4c3O)c(O)c12	-	1.2 µM
O=Cc1cc2c3ccc(O)cc3[nH]c2c2ccoc12	-	40 µM
O=c1[nH]cnc2c1ncn2[C@@H]1C=C(CO)[C@@H](O)[C@H]1O	-	>50 µg/mL
O=CC1=C[C@@]2(O)CC/C=C\CCCCN3CC[C@@H]1[C@]1(C[C@@H]4/C=C\CCCCN4C12)C3	-	>4.76 µg/mL
CO[C@H]1/C=C/O[C@@]2(C)Oc3c(C)c(O)c4c(O)c(c(/C=N/N5CCN(C)CC5)c(O)c4c3C2=O)NC(=O)/C(C)=C\C=C\[C@H](C)[C@H](O)[C@@H](C)[C@@H](O)[C@@H](C)[C@H](OC(C)=O)[C@@H]1C	MTS / absorbance	121 µM
CC1OC(C)C(O)C2=C1C(=O)c1ccccc1C2=O	-	4.31 µg/mL
Cc1cc2c(C(C)C)c(O)c(O)c(C=Nc3ccc(C(=O)O)cc3)c2c(O)c1-c1c(C)cc2c(C(C)C)c(O)c(O)c(C=Nc3ccc(C(=O)O)cc3)c2c1O	-	13.5 µM
Cc1cc(C)c2cc(C(=O)NC3CCCCC3)[nH]c2c1	resazurin	>200 µM
CCOC(=O)C(CCSC[C@H]1O[C@@H](n2ccc3c(N)ncnc32)[C@H](O)[C@@H]1O)NC(=O)COC	-	>400 µg/mL
CN1C[C@H](c2ccc(N3CCCCC3)cc2)[C@]2(CC3C=CC=CC3C2=O)[C@]12C(=O)c1cccc3cccc2c13	MTT	>62.5 µg/mL
N#Cc1c(SCCCBr)nsc1-c1ccccc1	-	25 µg/mL
CC[n+]1ccc(C2=C3C=CC(=N3)C(c3cc[n+](CC)cc3)=C3C=CC(=C(c4cc[n+](CC)cc4)C4=NC(=C(c5cc[n+](CC)cc5)C5=CC=C2[NH2+]5)C=C4)[NH2+]3)cc1.[Cl-]	-	5.9 µM
Nc1cccc(-c2c3nc(c(-c4cccc(N)c4)c4ccc([nH]4)c(-c4cccc(N)c4)c4nc(c(-c5cccc(N)c5)c5ccc2[nH]5)C=C4)C=C3)c1	-	6.6 µM
O=C(Cc1nn(Cc2ccc(Br)cc2F)c(=O)c2ccccc12)N1CCN(c2ccccn2)CC1	MTT	<117 µM
Nc1ncnc2c1ncn2[C@H]1C[C@@H](O)[C@@H](CO)O1	-	400 µg/mL
Nc1nc2c(ncn2[C@H]2OC[C@@](F)(C=CP(=O)(O)O)[C@H]2F)c(=O)[nH]1	MTT	>100 µM
O=C(O)c1cn(C2CC2)c2cc(N3CCNCC3)c(F)cc2c1=O	MTT	>189 µM
CCN(CC)CCNc1c(OC)cc(C)c2sc3ccccc3c(=O)c12.O=C(O)/C=C/C(=O)O	-	5 µg/mL
CSc1nsc(-c2ccccc2)c1C(N)=O	-	250 µg/mL
Nc1nc2c(ncn2[C@H]2OC[C@@](F)(CCP(=O)(O)O)[C@H]2F)c(=O)[nH]1	MTT	>100 µM
C=CCCCCCCCCC(=O)NNC(=O)c1ccncc1	-	>62.5 µg/mL
O=C1CCCN2C(CC1)C[C@]13CN4CCCC/C=C\CC[C@](O)(C=C(c5nccc6c5[nH]c5c(O)cccc56)[C@@H]1CC4)[C@H]23	-	>4.76 µg/mL
Cc1[nH]nc(-c2cccnc2)c1N=NN1CCC(C(N)=O)CC1	-	1.5 µg/mL
CC(C)OC(=O)C(N)CCSC[C@H]1O[C@@H](n2ccc3c(N)ncnc32)[C@H](O)[C@@H]1O	-	100 µg/mL
CCN(CCO)Cc1c(-c2ccccc2)oc(-c2ccccc2)c1Cl	-	16.6 µg/mL
COc1ccc2c3c([nH]c2c1)C(C)=NCC3	MTT	21.43 µg/mL
CC(O)C1(O)C(O)CC(OC2c3cc4c(c(O)c3[C@@H]3C[C@@]2(C)OC32C=c3cc[nH]c3=N2)C(=O)c2cccc(O)c2C4=O)OC1C	-	1.9 µg/mL
Cc1cnc(CC2=C[C@@]3(O)CC/C=C\CCCCN4CC[C@@H]2[C@]2(C[C@@H]5CCCCCCN5C23)C4)cn1	-	>4.76 µg/mL
Cc1cc2c(C(C)C)c(O)c(O)cc2c(O)c1-c1c(C)cc2c(C(C)C)c(O)c(O)cc2c1O	-	77.4 µM
CCSc1nsc(-c2ccccc2)c1C#N	-	100 µg/mL
c1ccc2c(c1)[nH]c1ccccc12	-	109 µM
Cc1c(N)nc(C(CC(N)=O)NCC(N)C(N)=O)nc1C(=O)NC(C(=O)NC(C)C(O)CC(=O)NC(C(=O)NC(OC1OC(C)C(N)C(O)C1O)C(O)c1nc(-c2nc(C(=O)NCCC[S+](C)C)cs2)cs1)C(C)O)C(OC1OC(CO)C(O)C(O)C1OC1OC(CO)C(O)C(OC(N)=O)C1O)c1cnc[nH]1.Cl.Cl.Cl.[Cl-]	-	20 µg/mL
COc1ccccc1-c1c2nc(c(-c3ccccc3OC)c3ccc([nH]3)c(-c3ccccc3OC)c3nc(c(-c4ccccc4OC)c4ccc1[nH]4)C=C3)C=C2	-	91.5 µM
O=S(=O)(O)c1ccc(-c2c3nc(c(-c4ccc(S(=O)(=O)O)cc4)c4ccc([n-]4)c(-c4ccc(S(=O)(=O)O)cc4)c4nc(c(-c5ccc(S(=O)(=O)O)cc5)c5ccc2[n-]5)C=C4)C=C3)cc1.[Na+]	-	>100 µM
Fc1ccc(N=C2/C(=C/c3ccco3)CNC/C2=C\c2ccco2)cc1F	MTT	428 µg/mL
COCCCn1c2c([n+](Cc3ccc([N+](=O)[O-])cc3)c1C)C(=O)c1ccccc1C2=O	-	4.05 µg/mL
CN(C)c1ccc(-c2c3nc(c(-c4ccc(N(C)C)cc4)c4ccc([nH]4)c(-c4ccc(N(C)C)cc4)c4nc(c(-c5ccc(N(C)C)cc5)c5ccc2[nH]5)C=C4)C=C3)cc1	-	36.8 µM
CON=C1/C(=C/c2ccco2)CNC/C1=C\c1ccco1	MTT	332 µg/mL
Oc1cccc(-c2c3nc(c(-c4cccc(O)c4)c4ccc([nH]4)c(-c4cccc(O)c4)c4nc(c(-c5cccc(O)c5)c5ccc2[nH]5)C=C4)C=C3)c1	-	3.79 µM
CCc1ccc2c(c1)[nH]c1ccccc12	-	>128 µM
Nc1nc(=O)n([C@@H]2C[Se][C@H](CO)O2)cc1F	-	>100 µM
Nc1ncnc2c1ncn2[C@H]1[C@H](O)[C@H](O)[C@]2(CO)O[C@H]12	-	50 µg/mL
C[C@@H](N)C(=O)O[C@H]1C[C@H](n2cc(/C=C/Br)c(=O)[nH]c2=O)O[C@@H]1COP1(=O)OCc2ccccc2O1	-	>128 µg/mL
C[n+]1c(-c2ccc(/C=N/NC(=O)c3ccc(C(=O)N/N=C/c4ccc(-c5cn6ccccc6[n+]5C)cc4)cc3)cc2)cn2ccccc21	-	92.04 µg/mL
C=C[C@]1(C)C=C2C(=O)c3c(NC=O)cccc3C(C)(C)[C@H]2C[C@H]1O	-	>100 µM
N#Cc1c(SCCO)nsc1-c1ccccc1	-	5 µg/mL
Cc1ccnc(NC(=O)Cc2nn(Cc3ccc(Br)cc3F)c(=O)c3ccccc23)c1	MTT	<130 µM
Nc1ncnc2c1c(Br)cn2[C@@H]1O[C@H](CO)[C@@H](O)[C@H]1O	-	0.1 µg/mL
COc1cc(C)cc2c3c([nH]c12)C(=O)c1ccccc1C3=O	-	>128 µM
CO[C@H]1/C=C/O[C@@]2(C)Oc3c(C)c(O)c4c(c3C2=O)C(=O)C(CO)=C(NC(=O)/C(C)=C\C=C\[C@H](C)[C@H](O)[C@@H](C)[C@@H](O)[C@@H](C)[C@H](OC(C)=O)[C@@H]1C)C4=O	-	>62.5 µg/mL
CCc1nc(N)nc(N)c1-c1ccc(Cl)cc1	MTT	>62.5 µg/mL
CC(C)OC(=O)C(CCSC[C@H]1O[C@@H](n2ccc3c(N)ncnc32)[C@H](O)[C@@H]1O)NC(=O)C(F)(F)F	-	200 µg/mL
Nc1ncnc2c1ncn2[C@@H]1C=C(CO)[C@@H](O)[C@H]1O	-	250 µg/mL
Cc1cccc2c1OP(=O)(OC[C@H]1O[C@@H](n3cc(/C=C/Br)c(=O)[nH]c3=O)C[C@@H]1OC(=O)[C@@H](N)Cc1ccccc1)OC2	-	88.8 µg/mL
Cc1ccc(NC(=O)c2ccccc2)cc1Cl	-	>200 µg/mL
C[C@H](N)C(=O)O[C@H]1C[C@H](n2cc(/C=C/Br)c(=O)[nH]c2=O)O[C@@H]1COP1(=O)OCc2ccccc2O1	-	>128 µg/mL
Nc1nc(-c2ccccn2)cs1	luminescence	>100 µM
COc1ccc(-c2cc3c(c(=O)o2)C[C@]2(O)[C@@]4(C)C(=O)C=CC(C)(C)[C@]4(O)CC[C@@]2(C)O3)cc1OC	MTT	100 µg/mL
Nc1nccc2c1ncn2[C@@H]1O[C@H](CO)[C@@H](O)[C@H]1O	-	400 µg/mL
COC1/C=C\C2=C[C@]34CN5CCCC/C=C\CCC(=C[C@@H](c6nccc7c6[nH]c6ccccc67)[C@H]3CC5)[C@@H]4N2CCC1	-	>4.76 µg/mL
Cc1cn([C@H]2C[C@H](N)[C@@H](CO)O2)c(=O)[nH]c1=O	-	<100 µM
Cc1cccc(C)c1Nc1cc(-c2ccccn2)ncn1	luminescence	57 µM
CCCCCCCCCC(=O)O[C@H]1C[C@H](n2cc(/C=C/Br)c(=O)[nH]c2=O)O[C@@H]1COP1(=O)OCc2cccc(C)c2O1	-	14.2 µg/mL
CN1C[C@H](c2cccc3c2OCO3)[C@]2(CC3C=CC=CC3C2=O)[C@]12C(=O)c1cccc3cccc2c13	MTT	>62.5 µg/mL
COc1cc(CO)cc2c1[nH]c1ccccc12	-	>128 µM
CCCCc1c(C#N)c(=O)n2c(N)c(C(=O)OCC)cnc2c1SC	-	0.05 µg/mL
O[C@]12C=C(c3nccc4c3[nH]c3ccccc34)[C@@H]3CCN(CCCC/C=C\CC1)C[C@@]31CC/C=C\CCCCNC12	-	>4.76 µg/mL
CCN(CC)CCCN(C)Cc1c(-c2ccccc2)oc(-c2ccccc2)c1Cl	-	1.8 µg/mL
CC(C)(C)c1ccc(C(=O)Nc2nccc(-c3ccccn3)n2)cc1	luminescence	14 µM
Nc1ccccc1-c1c2nc(c(-c3ccccc3N)c3ccc([nH]3)c(-c3ccccc3N)c3nc(c(-c4ccccc4N)c4ccc1[nH]4)C=C3)C=C2	-	41.8 µM
Oc1ccc2c(c1)[nH]c1ccccc12	-	>128 µM
FC(F)(F)c1ccc(Nc2nc(-c3ccccn3)cs2)cc1	luminescence	5 µM
CC(=O)Oc1c(-c2c(C)cc3c(C(C)C)c(O)c(O)c(C#N)c3c2OC(C)=O)c(C)cc2c(C(C)C)c(O)c(O)c(C#N)c12	-	>100 µM
Oc1cccc(-c2c3nc(c(-c4cccc(O)c4)c4ccc([nH]4)c(-c4cccc(O)c4)c4nc(c(-c5cccc(O)c5)c5ccc2[nH]5)C=C4)C=C3)c1	-	3.8 µM
CSc1nsc(-c2ccccc2)c1C#N	-	20 µg/mL
O=C(c1ccc(Br)cc1)c1cnc2nc(-c3ccccc3)c(-c3ccccc3)nn12	-	16 µg/mL
N#Cc1c(N2CCOCC2)nsc1-c1ccccc1	-	1 µg/mL
CC1=C(C)C(=O)C(C(C)(C)CC(=O)n2cc(F)c(=O)[nH]c2=O)=C(C)C1=O	-	0.9 µg/mL
COC1(Cc2ccc(O)cc2)OC(=O)C(O)=C1c1ccc(O)cc1	MTT	200 µg/mL
Cc1ccc(/C=N/NC(=O)c2ccncc2)s1	-	>62.5 µg/mL
Fc1ccc(N=C2/C(=C/c3ccco3)CNC/C2=C\c2ccco2)c(F)c1	MTT	382 µg/mL
C=CCNC(=S)NNC(=O)c1ccncc1	-	>62.5 µg/mL
COCC(=O)NC(CCSC[C@H]1O[C@@H](n2ccc3c(N)ncnc32)[C@H](O)[C@@H]1O)C(=O)O	-	>400 µg/mL
CCN1CCCc2cc3c(C(F)(F)F)cc(=O)oc3cc21	-	>200 µg/mL
Nc1ncnc2c1ccn2[C@@H]1O[C@H](CSCCC(NC(=O)C(F)(F)F)C(=O)O)[C@@H](O)[C@H]1O	-	>400 µg/mL

CCn is the concentration with n% toxicity to the cells. Blank or dashed fields: not listed here.